Compound potency records, mixed from different reports. Data source: NIAID ChemDB in PubChem.

Shared fields: growth or infection tests; agent: Aspergillus fumigatus; read-out: MIC

Neighbouring rows are from separate reports. Blank or dashed fields: not listed here. Two numbers with a dash give a range or band.

| structure | strain or isolate | value |
|---|---|---|
| Nc1ccc2oc(=O)ccc2c1 | ATCC 16913 | 1000 µg/mL |
| OC(Cn1cncn1)(Cn1cncn1)c1ccc(F)cc1F | NFI 0239 | >128 µg/mL |
| O=C1/C(=C/c2ccccc2)CN(C(=O)/C=C/c2ccc(Cl)cc2)C/C1=C\c1ccccc1 | 3 clinical isolates | >32 µg/mL |
| COc1ccc(Oc2c(C3C(C#N)=C(N)OC4=C3C(=O)CC(C)(C)C4)c(C)nn2-c2ccccc2)cc1 | MTCC 3008 | 250 µg/mL |
| CCN1CCN(c2ccccc2)CC1 | ITCC 4517 | 125 µg/mL |
| COc1ccc(Oc2nc3ccc(C)cc3cc2C2C(C#N)=C(N)OC3=C2C(=O)CCC3)cc1 | MTCC 3008 | 500 µg/mL |
| Cc1ccc2nc(Oc3ccccc3)c(C3C(C#N)=C(N)Oc4c3c(=O)oc3ccc(C)cc43)cc2c1 | MTCC 3008 | >1000 µg/mL |
| CCCCCCCCCCCCCCNC1CCc2cccc(O)c2C1 |  | >64 µM |
| CC(C)(C)c1ccc(CN(Cc2cccc3ccccc23)n2ccnc2)cc1 |  | >200 µM |
| O=c1ccc2cc(Cl)ccc2o1 | ATCC 16913 | 1000 µg/mL |
| Cc1cc(C)c(C(=O)/C=C/c2cc3ccccc3nc2Cl)o1 | ATCC 26934 | >50 µg/mL |
| CCCCCCCCCCNC1CCc2cc(O)ccc2C1 |  | >64 µM |
| Nc1[nH]c(=O)ncc1F |  | 0.5–64 µg/mL |
| O=C(/C=C/c1ccc([N+](=O)[O-])cc1)c1ccccc1 | ATCC 26934 | >50 µg/mL |
| CN(C/C=C/C#CC(C)(C)C)Cc1cccc2ccccc12 | NFI 0159 | 2 µg/mL |
| Cc1nn(-c2ccccc2)c(Oc2ccccc2)c1C1C(C#N)=C(N)OC2=C1C(=O)CCC2 | MTCC 3008 | >1000 µg/mL |
| COc1ccc(C(=O)CC(c2ccc3ccccc3c2)C(C#N)C#N)cc1OC | ATCC 26934 | >50 µg/mL |
| COc1ccc2oc(=O)ccc2c1 | ATCC 16913 | >1000 µg/mL |
| Cc1ccc2nc(Oc3ccccc3)c(C3C(C#N)=C(N)Oc4c3c(=O)oc3ccccc43)cc2c1 | MTCC 3008 | 1000 µg/mL |
| CCCCCCCCCCNC1CCc2ccc(O)cc2C1 |  | 16 µM |
| COc1ccc2nc(Oc3ccc(C)cc3)c(C3C(C#N)=C(N)Oc4c3c(=O)oc3ccccc43)cc2c1 | MTCC 3008 | >1000 µg/mL |
| Cc1nn(-c2ccccc2)c(Oc2ccccc2)c1C1C(C#N)=C(N)OC2=C1C(=O)CC(C)(C)C2 | MTCC 3008 | 1000 µg/mL |
| Cc1ccc(/C=C/C(=O)N2C/C(=C\c3ccccc3)C(=O)/C(=C/c3ccccc3)C2)cc1 | 3 clinical isolates | >32 µg/mL |
| C[C@H]1[C@H](O)[C@@H](C)/C=C/C=C/C=C/C=C/C=C/C=C/C=C/[C@H](O[C@@H]2O[C@H](C)[C@@H](O)[C@H](N)[C@@H]2O)C[C@@H]2O[C@](O)(C[C@@H](O)C[C@@H](O)CC[C@H](O)[C@@H](O)C[C@@H](O)CC(=O)O[C@H]1C)C[C@H](O)[C@H]2C(=O)O |  | 0.06–8 µg/mL |
| COc1ccc2nc(Oc3ccccc3)c(C3C(C#N)=C(N)Oc4c3c(=O)oc3ccc(C)cc43)cc2c1 | MTCC 3008 | 500 µg/mL |
| Cc1ccc(C(=O)/C=C/c2ccc(C(=O)O)cc2)cc1C | 3 clinical isolates | >32 µg/mL |
| CCCCCOc1ccc(-c2ccc(-c3ccc(C(=O)N[C@H]4C[C@@H](O)[C@@H](O)NC(=O)[C@@H]5[C@@H](O)[C@@H](C)CN5C(=O)[C@H]([C@H](C)O)NC(=O)[C@H]([C@H](O)[C@@H](O)c5ccc(O)cc5)NC(=O)[C@@H]5C[C@@H](O)CN5C(=O)[C@H]([C@H](C)O)NC4=O)cc3)cc2)cc1 |  | 0.015 µg/mL |
| CCCCCCCCOc1ccc(-c2ccc(C(=O)NC3CC(NCCN)CNC(=O)[C@@H]4[C@@H](O)[C@@H](C)CN4C(=O)[C@@H](CO)NC(=O)[C@H]([C@H](O)Cc4ccccc4)NC(=O)[C@@H]4C[C@@H](O)CN4C(=O)[C@H]([C@@H](C)O)NC3=O)cc2)cc1 | 50 isolates | 0.0625–0.5 µg/mL |
| C(=C\c1ccccc1)/CN(Cc1cccc2ccccc12)n1cncn1 |  | >200 µM |
| Cc1ccc(Oc2nc3ccc(C)cc3cc2C2C(C#N)=C(N)OC3=C2C(=O)CCC3)cc1 | MTCC 3008 | 500 µg/mL |
| O=c1ccc2cc(C(O)O)ccc2o1 | ATCC 16913 | >1000 µg/mL |
| O=C1/C(=C\c2ccccc2)CN(C(=O)c2ccc(/C=C/C(=O)c3ccccc3)cc2)C/C1=C/c1ccccc1 | 3 clinical isolates | >32 µg/mL |
| COc1ccc2nc(Oc3ccccc3)c(C3C(C#N)=C(N)Oc4c3c(=O)oc3ccccc43)cc2c1 | MTCC 3008 | 500 µg/mL |
| CN[C@@H]1[C@H](O)[C@@H](O)[C@H](O[C@H]2c3cc(C)c(C(=O)N[C@H](C)C(=O)O)c(O)c3-c3c(cc4c(c3O)C(=O)c3cc(OC)cc(O)c3C4=O)[C@@H]2O)O[C@@H]1C | IAM2530 | 3.1 µg/mL |
| O=C1/C(=C/c2ccccc2)CN(C(=O)c2ccc(/C=C/C(=O)c3ccc([N+](=O)[O-])cc3)cc2)C/C1=C\c1ccccc1 | 3 clinical isolates | >32 µg/mL |
| CC(=O)Oc1ccc2oc(=O)ccc2c1 | ATCC 16913 | 500 µg/mL |
| O=C(O)c1ccc(/C=C/C(=O)c2ccccc2)cc1 | 3 clinical isolates | >32 µg/mL |
| CN(C/C=C/C#CC(C)(C)C)Cc1cccc2ccccc12 | 14 isolates | 0.03–1 µg/mL |
| Cc1ccc2oc(=O)c3c(c2c1)OC(N)=C(C#N)C3c1cc2ccccc2nc1Oc1ccc(Cl)cc1 | MTCC 3008 | 500 µg/mL |
| CCCCCCCCNC1CCc2cccc(O)c2C1 |  | 16 µM |
| CCCCCCCCCNC1CCc2cc(OC)ccc2C1 |  | 8 µM |
| CCC(C)CC(C)CCCCCCCCC(=O)N[C@H]1C[C@@H](O)[C@H](NCCN)NC(=O)[C@@H]2[C@@H](O)CCN2C(=O)[C@H]([C@H](O)CCN)NC(=O)[C@H]([C@H](O)[C@@H](O)c2ccc(O)cc2)NC(=O)[C@@H]2C[C@@H](O)CN2C(=O)[C@H]([C@@H](C)O)NC1=O |  | 0.015–4 µg/mL |
| CCCCCOc1ccc(-c2cc(-c3ccc(C(=O)N[C@H]4C[C@@H](O)[C@@H](O)NC(=O)[C@@H]5[C@@H](O)[C@@H](C)CN5C(=O)[C@H]([C@H](O)CC(N)=O)NC(=O)[C@H]([C@H](O)[C@@H](O)c5ccc(O)c(OS(=O)(=O)O)c5)NC(=O)[C@@H]5C[C@@H](O)CN5C(=O)[C@H]([C@@H](C)O)NC4=O)cc3)no2)cc1 | IFM41209 | 0.0078 µg/mL |
| CCN1CCN(c2ccccc2OC)CC1 | ITCC 4517 | 500 µg/mL |
| C[C@@H]1[C@H](O)[C@@H](C)/C=C/C=C/CC/C=C/C=C/C=C/C=C/[C@H](O[C@@H]2O[C@H](C)[C@@H](O)[C@H](N)[C@@H]2O)C[C@@H]2O[C@](O)(C[C@@H](O)[C@H](O)CC[C@@H](O)C[C@@H](O)C[C@@H](O)CC(=O)O[C@H]1C)C[C@H](O)[C@H]2C(=O)O | MTCC 3008 | 100 µg/mL |
| O=C(O)c1ccc(/C=C/C(=O)c2ccc(O)cc2)cc1 | 3 clinical isolates | >32 µg/mL |
| Cc1ccc2nc(Oc3ccc(F)cc3)c(C3C(C#N)=C(N)OC4=C3C(=O)CCC4)cc2c1 | MTCC 3008 | 500 µg/mL |
| COc1cc(O)c2c(c1)C(=O)c1c(cc3c(c1O)-c1c(cc(C)c(C(=O)N[C@H](C)C(=O)O)c1O)[C@H](O[C@@H]1O[C@H](C)[C@H](N)[C@H](O[C@@H]4OC[C@@H](O)[C@H](O)[C@@H]4O)[C@H]1O)[C@H]3O)C2=O | IAM2034 | 1.6 µg/mL |
| O=c1ccc2ccccc2o1 | ATCC 16913 | 1000 µg/mL |
| CC1(C)CC(=O)C2=C(C1)OC(N)=C(C#N)C2c1cc2ccccc2nc1Oc1ccccc1 | MTCC 3008 | >1000 µg/mL |

The first 6 rows once more:

structure | strain or isolate | value
Nc1ccc2oc(=O)ccc2c1 | ATCC 16913 | 1000 µg/mL
OC(Cn1cncn1)(Cn1cncn1)c1ccc(F)cc1F | NFI 0239 | >128 µg/mL
O=C1/C(=C/c2ccccc2)CN(C(=O)/C=C/c2ccc(Cl)cc2)C/C1=C\c1ccccc1 | 3 clinical isolates | >32 µg/mL
COc1ccc(Oc2c(C3C(C#N)=C(N)OC4=C3C(=O)CC(C)(C)C4)c(C)nn2-c2ccccc2)cc1 | MTCC 3008 | 250 µg/mL
CCN1CCN(c2ccccc2)CC1 | ITCC 4517 | 125 µg/mL
COc1ccc(Oc2nc3ccc(C)cc3cc2C2C(C#N)=C(N)OC3=C2C(=O)CCC3)cc1 | MTCC 3008 | 500 µg/mL